Compound potency records, mixed from different reports. Data source: NIAID ChemDB in PubChem.

Shared fields: whole-cell or culture tests; agent: HIV-1; method: p24; read-out: EC95

Neighbouring rows are from separate reports. Two numbers with a dash give a range or band. ECn is the concentration giving n% inhibition of infection, replication or growth. Blank or dashed fields: not listed here.

compound	setting	mutations	strain	cells	value
Cc1ccnc(C(=O)CC(=O)c2cccc(Cc3ccccc3)c2)c1			IIIB	MT-4	5 µM
CCCN(C(=O)Nc1ccccc1)C1CCN(CCC(CN(C)S(=O)(=O)c2ccccc2)c2ccccc2)CC1			YU-2 (M-tropic)	PBMC	6 µM
CC(C)CN(C[C@@H](O)[C@H](Cc1ccccc1)NC(=O)[C@H](CC(N)=O)NC(=O)c1ccc2ccccc2n1)C(=O)NC(C)(C)C			PR-WT	MT-4	0.05–0.2 µM
Cc1cc(C)c(-n2nnnc2SCC(=O)Nc2ccc(S(N)(=O)=O)cc2)c(C)c1	50% human serum			MT-4	>5 µM
O=C1N(Cc2ccc(CO)cc2)[C@H](Cc2ccccc2)[C@H](O)[C@@H](O)[C@@H](Cc2ccccc2)N1Cc1ccc(CO)cc1		PR-L63P V82T I84V	NL4-3	MT-4	3 µM
CC(C)(c1cc2cnccc2o1)N1CCN(C[C@@H](O)C[C@@H](Cc2ccccc2)C(=O)N[C@H]2c3ccccc3OC[C@H]2O)[C@H](C(=O)NCCC(F)(F)F)C1			NL4-3	MT-4	0.062 µM
O=C(O)C(=O)CC(=O)c1cccc(Cc2cccc(F)c2)c1			IIIB	MT-4	2.5 µM
Cc1cccc(C)c1CNC(=O)[C@H]1N(C(=O)[C@@H](O)C[C@@H](Cc2ccccc2)C(=O)N[C@H]2c3ccccc3C[C@H]2O)CSC1(C)C				MT-4	0.031 µM
O=C1c2c(O)c(=O)n(C34CC5CC(CC(O)(C5)C3)C4)c(=O)n2CCN1Cc1ccc(F)cc1				MT-4	<10 µM
CC(C)(c1cc2cnccc2o1)N1CCN(C[C@@H](O)C[C@@H](Cc2ccccc2)C(=O)N[C@H]2c3ccccc3OC[C@H]2O)[C@H](C(=O)NCC2CC2)C1			NL4-3	MT-4	0.046 µM
Cc1cc(C)c(-n2nnnc2SCC(=O)Nc2c(Cl)cccc2Cl)c(C)c1	10% FBS			MT-4	>5 µM
CCNC(=O)[C@@H]1CN(C(C)(C)c2cc3cnccc3o2)CCN1C[C@@H](O)C[C@@H](Cc1ccccc1)C(=O)N[C@H]1c2ccccc2OC[C@H]1O			NL4-3	MT-4	0.031 µM
Cc1cc(C)c(-n2nnnc2SCC(=O)Nc2ccc(C(=O)NCCCN(C)C)cc2Cl)c(C)c1	50% human serum			MT-4	0.062 µM
CC(C)(c1ncc(-c2ccc(Cl)cc2)s1)N1CCN(C[C@@H](O)C[C@@H](Cc2cc3cnccc3s2)C(=O)N[C@H]2c3ccccc3OC[C@H]2O)[C@H](C(=O)NCC(F)(F)F)C1			NL4-3	MT-4	<0.0078 µM
CC(C)CN(C[C@@H](O)[C@H](Cc1ccccc1)NC(=O)[C@H](CC(N)=O)NC(=O)c1ccc2ccccc2n1)C(=O)NC(C)(C)C		PR-M46I L63P V82T I84V	NL4-3	MT-4	1.5 µM
CC(C)(c1cc2cnccc2o1)N1CCN(C[C@@H](O)C[C@@H](Cc2ccccc2)C(=O)N[C@H]2c3ccccc3OC[C@H]2O)[C@H](C(=O)NCc2cccs2)C1			NL4-3	MT-4	0.094 µM
O=C(CSc1nnnn1-c1ccc(Cl)c(Cl)c1)Nc1ccccc1[N+](=O)[O-]	50% human serum			MT-4	>5 µM
COc1ccc(Cc2ccccc2)cc1C(=O)CC(=O)C(=O)O			IIIB	MT-4	0.3 µM
CN(C)Cc1nc(C(=O)NCc2ccc(F)cc2)c(O)c(=O)[nH]1	50% human serum		IIIB	MT-4	>1 µM
Cc1ccncc1-c1ccc(C[C@H](C[C@H](O)CN2CCN(Cc3csc(-c4ccc(F)cc4)n3)C[C@H]2C(=O)NCC(F)(F)F)C(=O)N[C@H]2c3ccccc3OC[C@H]2O)o1			NL4-3	MT-4	0.0078 µM
O=C(NCc1ccc(F)cc1)c1nc(C2CCCNC2)[nH]c(=O)c1O	50% human serum		IIIB	MT-4	>10 µM
O=C(N[C@H]1c2ccccc2OC[C@H]1O)[C@H](Cc1cc2ccncc2o1)C[C@H](O)CN1CCN(Cc2ccc(-c3ccc(Cl)cc3)o2)C[C@H]1C(=O)NCC(F)(F)F			NL4-3	MT-4	<0.0078 µM
CC[C@H](C)[C@H](C(=O)O)N1C[C@H](CN2CCC(c3cc(Cc4ccc(OC)c(OC)c4)nn3CC)CC2)[C@@H](c2cccc(F)c2)C1	50% human serum		BaL	PBMC	0.028 µM
Cc1cc(C)c(-n2nnnc2SCC(=O)Nc2ccc(OCCCN(C)C)cc2Cl)c(C)c1	50% human serum			MT-4	0.2 µM
CC(C)=CCOc1cc(NC(=S)c2ccoc2C)ccc1Cl			IIIB	MT-2	0.03568 µg/mL
CC(C)c1nc(CN(C)C(=O)N[C@H](C(=O)N[C@@H](Cc2ccccc2)C[C@H](O)[C@H](Cc2ccccc2)NC(=O)OCc2cncs2)C(C)C)cs1			PR-WT	MT-4	0.1–0.4 µM
O=C(NCc1ccc(F)cc1)c1nc(N2CCCCS2(=O)=O)c2cccnc2c1O			BaL	Macrophage	0.104 µM
O=C(NCc1ccc(F)cc1)c1nc(C2CCNCC2)[nH]c(=O)c1O	50% human serum		IIIB	MT-4	>10 µM
Cc1cc(C)c(-n2nnnc2SCC(=O)Nc2ccc([N+](=O)[O-])cc2C)c(C)c1	50% human serum			MT-4	>5 µM
CN(C[C@@H](CCN1CCC2(CC1)CC(=O)c1ccccc12)c1cccc(Cl)c1)S(=O)(=O)c1ccccc1			YU-2 (M-tropic)	PBMC	1.5 µM
CN(C)Cc1ccc(-c2nc(C(=O)NCc3ccc(F)cc3)c(O)c(=O)[nH]2)cc1	10% FBS		IIIB	MT-4	>10 µM
CN(C(=O)OCc1ccccc1)C1CCN(CCC(CN(C)S(=O)(=O)c2ccccc2)c2ccccc2)CC1			YU-2 (M-tropic)	PBMC	12.5 µM
CCn1nc(Cc2ccc(C#N)cc2)cc1C1CCN(C[C@H]2CN([C@@H](C(=O)O)C(C)(C)C)C[C@@H]2c2cccc(F)c2)CC1			BaL	PBMC	0.0019 µM
CN1C[C@H](O)C(C)(C)Cn2c(c3c(c(O)c2=O)C(=O)N(Cc2ccc(F)c(Cl)c2)CC3)C1=O				MT-4	0.015 µM
CC(C)(c1ncc(-c2ccc(Cl)cc2)o1)N1CCN(C[C@@H](O)C[C@@H](Cc2cc3cnccc3s2)C(=O)N[C@H]2c3ccccc3OC[C@H]2O)[C@H](C(=O)NCC(F)(F)F)C1			NL4-3	MT-4	<0.0078 µM
CC(C)(C)NC(=O)[C@@H]1C[C@@H]2CCCC[C@@H]2CN1C[C@@H](O)[C@H](Cc1ccccc1)NC(=O)[C@@H](NC(=O)c1ccc2ccccc2n1)[C@H]1CCSC1			IIIB	MT-4	0.05 µM
CN1CCN(C2(Cn3c(=O)c(O)c4n(c3=O)CCN(Cc3ccc(F)cc3)C4=O)CCCCC2)CC1				MT-4	<10 µM
Cc1ccc(Cl)cc1-n1nnnc1SCC(=O)Nc1ccccc1[N+](=O)[O-]	10% FBS			MT-4	0.063 µM
CN(C[C@@H](CCN1CCC2(CC1)CS(=O)c1ccccc12)c1ccc(Cl)c(Cl)c1)S(=O)(=O)c1ccccc1			YU-2 (M-tropic)	PBMC	6–12 µM
Cc1cc(C)c(-n2nnnc2SCC(=O)Nc2ccc([N+](=O)[O-])cc2)c(C)c1	10% FBS			MT-4	>5 µM
O=C1c2c(O)c(=O)n(C3CCC3)c(=O)n2CCN1Cc1ccc(F)cc1				MT-4	<10 µM
CC(C)(c1cc2cnccc2o1)N1CCN(C[C@@H](O)C[C@@H](Cc2ccccc2)C(=O)N[C@H]2c3ccccc3OC[C@H]2O)[C@H](C(=O)NCc2ccccc2)C1			NL4-3	MT-4	0.125 µM
O=C(CSc1nnnn1-c1cc(Cl)ccc1Cl)Nc1ccccc1[N+](=O)[O-]	10% FBS			MT-4	0.078 µM

For reference, 5 entries again:

compound | setting | mutations | strain | cells | value
CC(C)CN(C[C@@H](O)[C@H](Cc1ccccc1)NC(=O)[C@H](CC(N)=O)NC(=O)c1ccc2ccccc2n1)C(=O)NC(C)(C)C |  |  | PR-WT | MT-4 | 0.05–0.2 µM
Cc1cccc(C)c1CNC(=O)[C@H]1N(C(=O)[C@@H](O)C[C@@H](Cc2ccccc2)C(=O)N[C@H]2c3ccccc3C[C@H]2O)CSC1(C)C |  |  |  | MT-4 | 0.031 µM
O=C(O)C(=O)CC(=O)c1cccc(Cc2cccc(F)c2)c1 |  |  | IIIB | MT-4 | 2.5 µM
CC(C)(c1cc2cnccc2o1)N1CCN(C[C@@H](O)C[C@@H](Cc2ccccc2)C(=O)N[C@H]2c3ccccc3OC[C@H]2O)[C@H](C(=O)NCC2CC2)C1 |  |  | NL4-3 | MT-4 | 0.046 µM
CC(C)(c1cc2cnccc2o1)N1CCN(C[C@@H](O)C[C@@H](Cc2ccccc2)C(=O)N[C@H]2c3ccccc3OC[C@H]2O)[C@H](C(=O)NCc2cccs2)C1 |  |  | NL4-3 | MT-4 | 0.094 µM